Reference: PubChem BioAssay AID504761 (Drosophila RNAi Screening Center, 2011)
The deposit covers about 22,000 reagents; this is an unselected part of those that have a named target and a result. Of all reagents, 116 (0.52%) are marked active. 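Calls depend on retest data that are not deposited; infection was ranked per plate without normalising between plates; the unit of the infection score is not given.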 Raw values are not corrected between plates. A number with no mark means an inactive call. No sequences are given here. Not given: the amount of reagent, the time to read-out.

Test: 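Genome-wide fly cell screen for genes dengue virus requires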 (primary screen)
Cell system: D.Mel-2 cells from Drosophila
Knock-down reagent: long dsRNA against Drosophila genes
Treatment: infection with dengue virus type 2; dose and infection time not stated
Measurement: 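Cells stained for dengue envelope protein and imaged; percent of infected cells per well on duplicate plates, ranked by infection, with stained nuclei counted for cell number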
Scale: infection score: higher = more virus-infected cells; cell count: higher = more cells in the well
Hit rule: 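Low infection ranks in the two replicates (chance level up to 0.065) followed by a retest with a 1.5-fold or larger significant decrease, p below 0.05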
Meaning of the calls: active = confirmed: knock-down lowers infection; inactive = not picked or not confirmed

no.	gene	amplicon	infection score, replicate 1	infection score, replicate 2	cell count, replicate 1	cell count, replicate 2
1	Vav (Vav guanine nucleotide exchange factor)	DRSC20384	3.51	2.24	5697	5528
2	Vav (Vav guanine nucleotide exchange factor)	DRSC24485	1.92	5.16	6087	5946
3	CG5050	DRSC02807	6.25	7.8	6605	6606
4	CG18765	DRSC15392	4.63	4.48	6372	6634
5	CG31404	DRSC15497	1.91	1.79	6481	6301
6	CG31404	DRSC28438	12.8	14.4	4300	4839
7	NHP2	DRSC11229	1.1	4.17	5456	5896
8	NHP2	DRSC24264	2.09	3.06	5301	5190
9	CG9922	DRSC16579	4.32	9.09	5486	6610
10	CG9922	DRSC29719	9.68	2.3	6330	6183
11	Synj (Synaptojanin)	DRSC04526	18.7	35.2	6167	5411
12	CG13060	DRSC09943	2.91	15.5	6525	6371
13	CG13060	DRSC28110	1.01	7.86	594	6415
14	Myo31DF (Myosin 31DF)	DRSC03376	6.43	12	6625	6386
15	Myo31DF (Myosin 31DF)	DRSC22702	8.4	8.52	6928	2042
16	Myo31DF (Myosin 31DF)	DRSC25363	8.67	4.54	5998	5841
17	hng3 (hinge3)	DRSC08367	4.06	1.14	6151	6222
18	hng3 (hinge3)	DRSC29262	29.5	16.4	4378	4862
19	CG10307	DRSC04057	3.57	21.8	6549	5236
20	CG10307	DRSC26316	5.76	9.58	5037	6253
21	CG2909	DRSC18241	10.7	3.5	6374	5822
22	CG31016	DRSC21359	4.65	15.9	6047	5742
23	CG31016	DRSC27353	11.7	6.89	6005	6459
24	kek3 (kekkon 3)	DRSC03553	2.42	10.9	6233	6672
25	kek3 (kekkon 3)	DRSC22830	2.26	0.79	6190	6858
26	kek3 (kekkon 3)	DRSC24250	4.73	4.5	5754	5868
27	CG8568	DRSC20113	3.76	7.49	6194	7340
28	CG8568	DRSC26687	3.42	1.13	6224	5925
29	CG32187	DRSC10521	1.01	7.1	6325	5870
30	nol (no optic lobe)	DRSC21425	2.13	4.43	6580	6688
31	nol (no optic lobe)	DRSC25423	4.54	3.66	5814	6447
32	TfIIFalpha (Transcription factor IIFalpha)	DRSC12608	30.7	2.9	3020	656
33	TfIIFalpha (Transcription factor IIFalpha)	DRSC26379	1.66	4.27	5895	5598
34	mAcon2 (Mitochondrial aconitase 2)	DRSC15629	4.02	6.82	6597	6807
35	mAcon2 (Mitochondrial aconitase 2)	DRSC24696	4.43	5.23	6450	6008
36	CG30371	DRSC06835	1.83	2.5	6188	6630
37	Esp (Epidermal stripes and patches)	DRSC16664			358	353
38	CG18004	DRSC06705	5.71	3.41	5780	6402
39	CG18004	DRSC26317	3.82	13.8	4840	6066

Sorted by “infection score, replicate 1” (ascending): some entries from above.
gene	amplicon	infection score, replicate 1	infection score, replicate 2	cell count, replicate 1	cell count, replicate 2
CG10307	DRSC04057	3.57	21.8	6549	5236
hng3 (hinge3)	DRSC08367	4.06	1.14	6151	6222
Myo31DF (Myosin 31DF)	DRSC22702	8.4	8.52	6928	2042
Myo31DF (Myosin 31DF)	DRSC25363	8.67	4.54	5998	5841
hng3 (hinge3)	DRSC29262	29.5	16.4	4378	4862
